Anti-infective test results gathered from many reports (values: NIAID ChemDB through PubChem).

Common to all: whole-cell or culture tests; organism: HIV-1; read-out: EC90

Neighbouring rows are from separate reports.

{"structure": "CCn1nc(C2CCN(C[C@H]3CN([C@@H](C(=O)O)C4CCCCC4)C[C@@H]3c3ccccc3)CC2)cc1Cc1ccccc1", "cells": "HeLa", "read by": "β-galactosidase", "strain": "BaL", "value": ">0.3 µM"}
{"structure": "Cc1cn([C@H]2C[C@H](N=[N+]=[N-])[C@@H](CO)O2)c(=O)[nH]c1=O", "cells": "MT-4", "read by": "cytopathic effect / MTT", "strain": "IIIB", "value": "0.029 µM"}
{"structure": "O=c1[nH]cnc2c1ncn2[C@H]1CC[C@@H](CO)O1", "cells": "MT-4", "read by": "p24", "strain": "NL4-3 WT", "value": "6.5 µM"}
{"structure": "CCOc1cccc(Cc2cc(C3CCN(C[C@H]4CN([C@@H](C(=O)O)C(C)(C)C)C[C@@H]4c4cccc(F)c4)CC3)n(CC)n2)c1", "cells": "HeLa", "read by": "β-galactosidase", "strain": "BaL", "value": "<0.00014 µM"}
{"structure": "NNC(=O)NN1C(=O)c2cc(S(=O)(=O)[O-])cc3c(N)c(S(=O)(=O)[O-])cc(c23)C1=O", "cells": "PBMC", "read by": "trypan blue", "strain": "LAV", "value": ">100 µM"}
{"structure": "CC(C)(C)NC(=O)[C@@H]1C[C@@H]2CCCC[C@@H]2CN1C[C@@H](O)[C@H](Cc1ccccc1)NC(=O)[C@H](CC(N)=O)NC(=O)c1ccc2ccccc2n1", "cells": "MT-2", "read by": "RT activity", "strain": "MN", "value": "0.013 µM"}
{"structure": "C[C@H](Cn1cnc2c(N)ncnc21)OCP(=O)(O)O", "cells": "Jurkat cells", "read by": "luciferase", "strain": "NL4-3", "value": "3.65 µM"}
{"structure": "S=c1[nH]c2cc(Cl)cc3c2n1CCN1CCCCC31", "cells": "MT-4", "read by": "cytopathic effect / MTT", "strain": "IIIB", "value": ">200 µM"}
{"structure": "CC(C)[C@H](NC(=O)OCc1ccccc1)C(=O)N[C@@H](Cc1ccccc1)[C@@H](O)[C@H](O)[C@H](Cc1ccccc1)NC(=O)[C@@H](NC(=O)OCc1ccccc1)C(C)C", "cells": "MT-2", "read by": "hybridisation", "strain": "RF", "value": "0.054 µM"}
{"structure": "O=C(O)c1cc[c]([Sb](=[O])([OH])[OH])cc1[N+](=O)[O-]", "cells": "MAGI", "read by": "β-galactosidase", "strain": "NL4-3", "value": "9.07 µM"}
{"structure": "COc1oc([C@H]2C/C(=C/C(C)=C/c3ccc(Oc4ccccc4)cc3)CO2)c(C)c(=O)c1C", "cells": "PBMC + LC5-RIC", "read by": "fluorescence", "strain": "LAI", "value": "0.4852 µM"}
{"structure": "CCn1nc(Cc2ccc(OC(F)F)cc2)cc1C1CCN(C[C@H]2CN([C@@H](C(=O)O)C(C)C)C[C@@H]2c2cccc(F)c2)CC1", "cells": "HeLa", "read by": "β-galactosidase", "strain": "BaL", "value": "<0.00014 µM"}
{"structure": "Cc1cn([C@H]2C=C[C@@H](CO)O2)c(=O)[nH]c1=O", "cells": "C8166", "read by": "cytopathic effect", "strain": "RF", "value": "1 µg/mL"}
{"structure": "Cc1ncnc(C)c1C(=O)N1CCC(C)(N2CCN([C@@H](Cc3ccccc3)c3ccc(C(F)(F)F)cc3)[C@@H](C)C2)CC1", "cells": "PBMC", "strain": "RU570 Clinical isolates", "value": "0.004 µM"}
{"structure": "Cc1cn([C@H]2C=C[C@@H](CO)O2)c(=O)[nH]c1=O", "cells": "Primary T lymphocytes", "read by": "p24 / ELISA", "mutations": "K65R", "value": "7.9 µM"}
{"structure": "Cc1ccnc2c1NC(=O)c1cccnc1N2C1CC1", "cells": "ACH2 + TZM-bl", "read by": "luciferase", "strain": "SF162", "value": "0.157 µM"}
{"structure": "CCn1ncc(Cc2ccccc2)c1C1CCN(C[C@H]2CN([C@@H](C(=O)O)C3CCCCC3)C[C@@H]2c2ccccc2)CC1", "cells": "HeLa", "read by": "β-galactosidase", "strain": "BaL", "value": "0.0069 µM"}
{"structure": "CC[C@H](C)[C@H](NC(=O)Cc1ccccn1)C(=O)N[C@@H](Cc1ccccc1)[C@@H](O)[C@H](O)[C@H](Cc1ccccc1)NC(=O)[C@@H](NC(=O)Cc1ccccn1)[C@@H](C)CC", "cells": "MT-2", "read by": "plaque count / virus yield", "strain": "RF", "value": "0.9 µg/mL"}
{"structure": "Nc1nc(=O)n([C@@H]2CS[C@H](CO)O2)cc1F", "cells": "Primary T lymphocytes", "read by": "p24 / ELISA", "mutations": "M184V", "value": "41.3 µM"}
{"structure": "CCn1nc(-c2ccc(C#N)cc2)cc1C1CCN(C[C@H]2CN([C@@H](C(=O)O)C3CCCCC3)C[C@@H]2c2ccccc2)CC1", "cells": "HeLa", "read by": "β-galactosidase", "strain": "BaL", "value": ">0.3 µM"}
{"structure": "O=c1cc(Cc2ccccc2)[nH]c(=O)[nH]1", "cells": "MT-4", "read by": "MTT / virus yield", "strain": "IIIB", "value": ">200 µM"}
{"structure": "COc1ccc(/C=C(C)/C=C2\\CO[C@@H](c3oc(OC)c(C)c(=O)c3C)C2)cc1OC", "cells": "PBMC + LC5-RIC", "read by": "fluorescence", "strain": "LAI", "value": "0.5876 µM"}
{"structure": "COCCNC(=O)[C@@H](NC(=O)[C@H](Cc1ccc(OC)c(OC)c1OC)C[C@H](O)[C@H](Cc1ccccc1)NC(=O)OC(C)(C)C)C(C)C", "cells": "MT-2", "read by": "RT activity", "strain": "MN", "value": "0.0097 µM"}
{"structure": "CC(C)CN(C[C@@H](O)[C@H](Cc1ccccc1)NC(=O)O[C@H]1CCOC1)S(=O)(=O)c1ccc(N)cc1", "cells": "PBMC", "read by": "p24", "mutations": "PR-M46I L63P A71V V82F I84V", "strain": "HXB2", "value": "1.33 µM"}
{"structure": "C1CNCCNCCCN[C@H]([C@@H]2CNCCCNCCNCCCN2)CNC1", "cells": "CEM", "read by": "antigen", "strain": "IIIB", "value": "2.32 µM"}
{"structure": "CC(C)c1c(COC(N)=O)cn(Cc2ccncc2)c1Sc1cc(Cl)cc(Cl)c1", "cells": "MT-4", "read by": "cytopathic effect / MTT", "strain": "IIIB", "value": "1 µM"}
{"structure": "CCc1cc(CCc2nc3ccccc3o2)c(=O)[nH]c1C", "cells": "MT-4", "read by": "cytopathic effect / MTT", "strain": "IIIB", "value": "0.051 µM"}
{"structure": "CCN(c1ncccc1NC(C)(C)C)C1CCN(C(=O)c2cc3cc(NS(C)(=O)=O)ccc3[nH]2)CC1", "cells": "PBMC", "read by": "p24", "strain": "Isolate 461", "value": "0.03 µM"}
{"structure": "CC(C)c1c(CO)cn(Cc2ccncc2)c1Sc1cc(Cl)cc(Cl)c1", "read by": "cytopathic effect / MTT", "mutations": "RT-K103N", "value": "2.3 µM"}
{"structure": "Nc1c(S(=O)(=O)O)cc2c3c(cc(S(=O)(=O)O)cc13)C(=O)N(NC(=O)N/N=C\\c1ccc(-c3ccc(C=O)cc3)cc1)C2=O", "cells": "PBMC", "read by": "trypan blue", "strain": "LAV", "value": "93.4 µM"}
{"structure": "Nc1nc(=O)n([C@@H]2CS[C@H](CO)O2)cc1F", "cells": "Jurkat cells", "read by": "luciferase", "strain": "NL4-3", "value": "0.651 µM"}
{"structure": "CC(C)CN(C[C@@H](O)[C@H](Cc1ccccc1)NC(=O)[C@@H](NC(=O)CNCc1cccc(F)c1)C(C)(C)C)S(=O)(=O)c1cccc(N)c1", "cells": "MT-2", "read by": "virus yield", "strain": "IIIB", "value": "0.0046 µM"}
{"structure": "CCC[C@@]1(CCc2ccccc2)CC(O)=C([C@H](CC)c2cccc(NS(=O)(=O)c3ccc(C(F)(F)F)cn3)c2)C(=O)O1", "cells": "MT-4", "read by": "p24", "strain": "NL4-3", "value": "0.07 µM"}
{"structure": "CC[C@H](C)[C@H](NC(=O)Cc1ccccn1)C(=O)N[C@@H](Cc1ccccc1)[C@@H](O)[C@H](O)[C@H](Cc1ccccc1)NC(=O)[C@@H](NC(=O)Cc1ccccn1)[C@@H](C)CC", "cells": "MT-2", "read by": "plaque count / virus yield", "strain": "RF", "value": "1 µg/mL"}
{"structure": "CCc1cc(NCc2nc3c(Cl)ccc(Cl)c3o2)c(=O)[nH]c1C", "cells": "MT-4", "read by": "antigen", "strain": "HXB2", "value": "0.085 µM"}
{"structure": "O=c1[nH]c(=O)n([C@H]2C[C@H](O)[C@@H](CO)O2)cc1C12B3B4B5B6B(B3B1B42)B1B5C61", "cells": "PBMC", "read by": "cytopathic effect / MTT", "value": "189 µM"}
{"structure": "CC[C@H](C)[C@H](C(=O)O)N1C[C@H](CN2CCC(c3cc(Cc4ccc(C(F)(F)F)cc4)nn3CC)CC2)[C@@H](c2cccc(F)c2)C1", "cells": "HeLa", "read by": "β-galactosidase", "setting": "50% human serum", "strain": "BaL", "value": "0.033 µM"}
{"structure": "Cc1cn([C@H]2C[C@H](N=[N+]=[N-])[C@@H](CO)O2)c(=O)[nH]c1=O", "cells": "MT-2", "strain": "RF", "value": "0.015–0.38 µg/mL"}
{"structure": "COc1oc([C@H]2C/C(=C/C(C)=C/c3ccc(N(C)C)cc3)CO2)c(C)c(=O)c1C", "cells": "PBMC + LC5-RIC", "read by": "fluorescence", "strain": "LAI", "value": "0.1892 µM"}
{"structure": "S=C(NCCc1ccccn1)Nc1ccc(Br)cn1", "cells": "MT-4", "read by": "cytopathic effect / XTT", "strain": "IIIB", "value": "0.13 µM"}
{"structure": "Nc1nc(NC2CC2)c2ncn([C@H]3C=C[C@@H](CO)O3)c2n1", "cells": "PBMC", "read by": "cytopathic effect / MTT", "strain": "LAI", "value": "17 µM"}
{"structure": "COc1ccc(-c2cc(C3CCN(C[C@H]4CN([C@@H](C(=O)O)C5CCCCC5)C[C@@H]4c4cccc(F)c4)CC3)[nH]n2)cc1", "cells": "HeLa", "read by": "β-galactosidase", "strain": "BaL", "value": ">0.3 µM"}
{"structure": "CC(C)CN(C[C@@H](O)[C@H](Cc1ccccc1)NC(=O)O[C@H]1CCOC1)S(=O)(=O)c1ccc(N)cc1", "cells": "MT-4", "read by": "p24", "mutations": "PR-D30N A71V", "strain": "NL4-3", "value": "0.02 µM"}
{"structure": "CC(C)c1c(COC(N)=O)cn(Cc2ccncc2)c1Sc1ccccc1", "read by": "cytopathic effect / MTT", "mutations": "RT-K103N", "value": ">100 µM"}
{"structure": "Cc1cn([C@H]2C[C@H](N=[N+]=[N-])[C@@H](CO)O2)c(=O)[nH]c1=O", "cells": "ACH2 + TZM-bl", "read by": "luciferase", "strain": "NL4-3", "value": "0.0148 µM"}
{"structure": "O=C1Nc2ccc(Cl)cc2[C@@](C#CC2CC2)(C(F)(F)F)O1", "cells": "Primary T lymphocytes", "read by": "p24 / ELISA", "mutations": "L74V", "value": "0.2 µM"}
{"structure": "CCOC(=O)Cn1nc(Cc2ccccc2)cc1C1CCN(C[C@H]2CN([C@@H](C(=O)O)C3CCCCC3)C[C@@H]2c2ccccc2)CC1", "cells": "HeLa", "read by": "β-galactosidase", "strain": "BaL", "value": "0.022 µM"}
{"structure": "Cc1cn([C@H]2C=C[C@@H](CO)O2)c(=O)[nH]c1=O", "cells": "MT-4", "read by": "cytopathic effect / MTT", "strain": "IIIB", "value": "4.2 µM"}
{"structure": "CC(C)(C)NC(=O)[C@@H]1C[C@@H]2CCCC[C@@H]2CN1C[C@@H](O)[C@H](Cc1ccccc1)NC(=O)[C@H](CC(N)=O)NC(=O)c1ccc2ccccc2n1", "cells": "PBMC", "read by": "p24", "mutations": "PR-L10I K20R M36I/V P63L/S L90M", "strain": "BR60 (PR L10I K20R M36I/V P63L/S L90M)", "value": "0.016 µM"}
{"structure": "Cc1cn([C@H]2C[C@H](N=[N+]=[N-])[C@@H](CO)O2)c(=O)[nH]c1=O", "cells": "MT-4", "read by": "cytopathic effect / XTT", "strain": "IIIB", "value": "0.08 µM"}
{"structure": "COc1nc(Cc2ccccc2)cc(=O)[nH]1", "cells": "MT-4", "read by": "MTT / virus yield", "strain": "IIIB", "value": ">200 µM"}
{"structure": "C1CNCCNCCCN(CCCN2CCCNCCNCCCNCC2)CCNC1", "cells": "MT-4", "read by": "cytopathic effect / MTT", "strain": "IIIB", "value": "0.87 µM"}
{"structure": "CCn1nc(Cc2ccc(OC)cc2)cc1C1CCN(C[C@H]2CN([C@@H](C(=O)O)C(C)(C)C)C[C@@H]2c2cccc(F)c2)CC1", "cells": "HeLa", "read by": "β-galactosidase", "strain": "BaL", "value": "<0.00014 µM"}
{"structure": "CC(=O)c1ccccc1NC(C(N)=O)c1c(Cl)cccc1Cl", "cells": "MT-4", "read by": "p24", "strain": "IIIB", "value": "0.15 µM"}
{"structure": "COc1oc([C@H]2C/C(=C/C(C)=C/c3ccccc3Cl)CO2)c(C)c(=O)c1C", "cells": "PBMC + LC5-RIC", "read by": "fluorescence", "strain": "LAI", "value": "4.211 µM"}
{"structure": "CCn1nc(Cc2ccccc2)cc1C1CCN(C[C@H]2CN([C@@](C)(C(=O)O)C(C)C)C[C@@H]2c2cccc(F)c2)CC1", "cells": "HeLa", "read by": "β-galactosidase", "strain": "BaL", "value": "0.3 µM"}
{"structure": "CC(C)c1nc(CN(C)C(=O)N[C@H](C(=O)N[C@@H](Cc2ccccc2)C[C@H](O)[C@H](Cc2ccccc2)NC(=O)OCc2cncs2)C(C)C)cs1", "cells": "MT-4", "read by": "p24", "strain": "NL4-3", "value": "0.08 µM"}
{"structure": "Cc1cn([C@H]2C[C@H](N=[N+]=[N-])[C@@H](CO)O2)c(=O)[nH]c1=O", "cells": "PBMC", "read by": "p24", "mutations": "RT-M41L D67N K70R T215Y K219Q", "strain": "XM-AZT-resistant", "value": "6.7 µM"}
{"structure": "O=C1Nc2ccc(Cl)cc2[C@@](C#CC2CC2)(C(F)(F)F)O1", "cells": "Jurkat cells", "read by": "luciferase", "strain": "NL4-3", "value": "0.0034 µM"}
{"structure": "COc1oc([C@H]2C/C(=C/C(C)=C/c3ccc(S(C)(=O)=O)cc3)CO2)c(C)c(=O)c1C", "cells": "PBMC + LC5-RIC", "read by": "fluorescence", "strain": "LAI", "value": "8.411 µM"}

ECn is the concentration giving n% inhibition of infection, replication or growth. Two numbers with a dash give a range or band.